Pooled drug test results. Numbers come from NIAID ChemDB, via PubChem.

Shared fields: growth or infection tests

Zones are inhibition diameters on agar.

smiles,conditions,agent,dose,mutations,endpoint,read by,strain,value
CC(=O)NC[C@H]1CN(c2ccc3c(c2)OCc2nnnn2-3)C(=O)O1,,Mycoplasma pneumoniae,,,MIC,,,>32 µg/mL
CCc1nc2cc(F)ccn2c1C(=O)NCc1ccc(N2CCN(c3ccc(OC(F)(F)F)cc3)[C@H]3CCCC[C@@H]32)c(F)c1.Cl,,Mycobacterium avium,0.87 µM,,inhibition,fluorescence,,85%
CCCCCCCCCCCCCCCCCCCCCOC(=O)NC(C)(CCC(=O)O)CCC(=O)O,,Mycobacterium marinum,,,MIC,,ATCC 927,424 µg/mL
CO[C@H]1/C=C/O[C@@]2(C)Oc3c(C)c(O)c4c(O)c(c5c(c4c3C2=O)NC2(CCN(CC(C)C)CC2)N=5)=NC(=O)/C(C)=C\C=C\[C@H](C)[C@H](O)[C@@H](C)[C@@H](O)[C@@H](C)[C@H](OC(C)=O)[C@@H]1C,,Mycobacterium avium intracellulare,,,MIC,,9-Feb,0.5 µg/mL
C[C@@H]1CN(c2c(F)c(N)c3c(=O)c(C(=O)O)cn(C4CC4)c3c2F)C[C@H](C)N1,,Mycoplasma hominis,,,MIC90,,20 strains,≤0.01 µg/mL
COc1c(NC(=O)c2ccc(NC(=O)c3ccc(NC(=O)[C@H](Cc4cn[nH]n4)NC(=O)c4ccc(NC(=O)/C(C)=C/c5ccc(O)cc5)cc4)cc3C(F)(F)F)c(OC)c2O)ccc(C(=O)O)c1O,,Mycobacterium luteus,,,MIC,resazurin,130.21,4 µg/mL
CCCCCCCCCCCCCCCCCCOC(=O)NC(C)(CCC(=O)O)CCC(=O)O,,Mycobacterium chelonae,,,MIC,,EO-P-1,69 µg/mL
CC(C)N=c1cc2n(-c3ccc(Cl)cc3)c3ccccc3nc-2cc1Nc1ccc(Cl)cc1,,Mycobacterium bolletii,,,MIC90,broth dilution,Clinical isolate,1 µg/mL
CCCCCC1=NN(C(=O)CCOC(C)=O)OC(CCCCC)C1,,Mycobacterium abscessus,200 µg/disc,IMP CIP PEN resistant,zone,agar diffusion,Clinical Isolate 690,25 mm
COC(=O)NC[C@H]1CN(c2ccc3c(c2)OCc2nccn2-3)C(=O)O1,,Mycoplasma pneumoniae,,,MIC,,,16 µg/mL
CC[C@H]1OC(=O)[C@H](C)[C@@H](O[C@H]2C[C@@](C)(OC)[C@@H](O)[C@H](C)O2)[C@H](C)[C@@H](O[C@@H]2O[C@H](C)C[C@H](N(C)C)[C@H]2O)[C@](C)(OC)C[C@@H](C)C(=O)[C@H](C)[C@@H](O)[C@]1(C)O,,Mycobacterium marinum,,,MIC,,ATCC 927,1.6 µg/mL
Cc1ccc2oc(=S)n(-c3ccc(Cl)c(Cl)c3)c(=S)c2c1,14 d,Mycobacterium kansasii,,,MIC,,My 235/80,8 µM
CC(=O)NC[C@H]1CN(c2ccc3c(c2)OC(F)(F)c2nccn2-3)C(=O)O1,,Mycoplasma pneumoniae,,,MIC,,,>32 µg/mL
O=c1oc2ccc(Br)cc2c(=S)n1-c1ccc(F)cc1,21 d,Mycobacterium kansasii,,,MIC,,6509/96,16 µM
CCCCCCCCCCCCCCNC(=O)NC(CCC(=O)O)(CCC(=O)O)CCC(=O)O,,Mycobacterium abscessus,,,MIC,,AAy-P-1,144 µg/mL
CC(=O)NC[C@H]1CN(c2ccc3c(c2)COc2nccn2-3)C(=O)O1,,Mycoplasma pneumoniae,,,MIC,,,16 µg/mL
CCCCCc1c2c(cc(O)c1C(=O)O)OC(=O)c1c(cc(C=O)cc1C(=O)CCCC)O2,,Mycobacterium aurum,,,MIC,,,125 µg/mL
CCCCOc1ccc(N2CCC(c3ccc(CNC(=O)c4c(CC)nc5cc(F)ccn45)c(F)c3)CC2)cc1.Cl,,Mycobacterium avium,0.01 µM,,inhibition,fluorescence,,85%
COc1ccc2oc(=O)n(-c3ccc(C(F)(F)F)cc3)c(=S)c2c1,21 d,Mycobacterium kansasii,,,MIC,,6509/96,62.5 µM
CCCC[C@H]1CN(c2ccc(CNC(=O)c3c(CC)nc4ccc(Cl)cn34)cc2F)CCN1c1ccc(OC(F)(F)F)cc1,,Mycobacterium avium,0.015 µM,,inhibition,fluorescence,,85%
COc1c(NC(=O)c2ccc(NC(=O)c3ccc(NC(=O)[C@H](Cc4cn[nH]n4)NC(=O)c4ccc(NC(=O)/C(C)=C/c5ccc(O)cc5)cc4)cn3)c(OC)c2O)ccc(C(=O)O)c1O,,Mycobacterium luteus,,,MIC,resazurin,130.21,0.031 µg/mL
CC(C)=CCC/C(C)=C/Cc1cc2ccc(=O)oc2cc1O,,Mycobacterium aurum,,,MIC,,PL 104482,3.4 µM
O=c1oc2ccc(Br)cc2c(=S)n1-c1ccccc1,14 d,Mycobacterium kansasii,,,MIC,,6509/96,2 µM
Cc1nc2ccc(Br)cn2c1C(=O)NCc1ccc(N2CCC(c3ccc(F)cc3)CC2)cc1,,Mycobacterium avium,0.016 µM,,inhibition,fluorescence,,85%
CCCCCCCCCCCCCCCCCCNC(=O)NC(CCC(=O)O)(CCC(=O)O)CCC(=O)O,,Mycobacterium abscessus,,,MIC,,AAy-P-1,9 µg/mL
Cc1nc2ccc(F)cn2c1C(=O)NCc1ccc(N2CCN(c3ccc(OC(F)(F)F)cc3)[C@@H](C)C2)c(F)c1,,Mycobacterium avium,0.015 µM,,inhibition,fluorescence,,85%
COc1ccc2oc(=O)n(-c3ccc(F)cc3)c(=S)c2c1,14 d,Mycobacterium kansasii,,,MIC,,6509/96,16 µM
COc1c(NC(=O)c2ccc(NC(=O)c3ccc(NC(=O)[C@H](Cc4cn[nH]n4)NC(=O)c4ccc(NC(=O)/C(C)=C/c5ccc(O)cc5)cc4)cc3Cl)c(OC)c2O)ccc(C(=O)O)c1O,,Mycobacterium luteus,,,MIC,resazurin,130.21,0.25 µg/mL
NCC[C@H](O)C(=O)N[C@@H]1C[C@H](N)[C@@H](O[C@H]2O[C@H](CN)[C@@H](O)[C@H](O)[C@H]2O)[C@H](O)[C@H]1O[C@H]1O[C@H](CO)[C@@H](O)[C@H](N)[C@H]1O,,Mycobacterium marinum,,,MIC,,ATCC 927,0.4 µg/mL
CC(=O)NC[C@H]1CN(c2ccc3c(c2)COCc2nccn2-3)C(=O)O1,,Mycoplasma pneumoniae,,,MIC,,,8 µg/mL

The last 2 rows once more:

smiles | conditions | agent | dose | mutations | endpoint | read by | strain | value
NCC[C@H](O)C(=O)N[C@@H]1C[C@H](N)[C@@H](O[C@H]2O[C@H](CN)[C@@H](O)[C@H](O)[C@H]2O)[C@H](O)[C@H]1O[C@H]1O[C@H](CO)[C@@H](O)[C@H](N)[C@H]1O |  | Mycobacterium marinum |  |  | MIC |  | ATCC 927 | 0.4 µg/mL
CC(=O)NC[C@H]1CN(c2ccc3c(c2)COCc2nccn2-3)C(=O)O1 |  | Mycoplasma pneumoniae |  |  | MIC |  |  | 8 µg/mL

Conditions beyond the fields shown may differ between rows. Inhibition is in % at the dose shown (toxicity tests: loss of growth or viability). An empty or dashed field is not shown. A number after MIC or MFC names an inhibition level or a share of isolates.